Test results as given in paper PMC6478803.

Legend:
[1] = target: FleQ (Pseudomonas syringae pv. tomato DC3000) (UniProt Q884Y2); test: EMSA; conditions: STAD: 25 mM Tris-acetate pH 8.0, 8 mM Mg-acetate, 10 mM KCl, 3.5% PEG-8000, 1 mM DTT, 10 ug/ml poly(dI-dC), 200 ug/ml BSA, 20 nM probe (Results: 1 nM), 30 min at 4 C, recombinant protein, residues 1-491, probe letters rebuilt from the primers and the genome
[2] = target: FleQ (Pseudomonas syringae pv. tomato DC3000) (UniProt Q884Y2); test: competition with a labelled probe; conditions: cold wssA1-2 at 1x and 5x; STAD: 25 mM Tris-acetate pH 8.0, 8 mM Mg-acetate, 10 mM KCl, 3.5% PEG-8000, 1 mM DTT, 10 ug/ml poly(dI-dC), 200 ug/ml BSA; 20 nM probe (Results: 1 nM); 30 min at 4 C; recombinant protein; residues 1-491; probe letters rebuilt from the primers and the genome
[3] = target: FleQ (Pseudomonas syringae pv. tomato DC3000) (UniProt Q884Y2); test: DNase I and DMS footprinting; conditions: STAD: 25 mM Tris-acetate pH 8.0, 8 mM Mg-acetate, 10 mM KCl, 3.5% PEG-8000, 1 mM DTT, 10 ug/ml poly(dI-dC), 200 ug/ml BSA, 20 nM probe (Results: 1 nM), 30 min at 4 C, recombinant protein, residues 1-491, probe letters rebuilt from the primers and the genome
[4] = target: FleQ (Pseudomonas syringae pv. tomato DC3000) (UniProt Q884Y2); test: DNase I footprinting; conditions: 1 uM FleQ; STAD: 25 mM Tris-acetate pH 8.0, 8 mM Mg-acetate, 10 mM KCl, 3.5% PEG-8000, 1 mM DTT, 10 ug/ml poly(dI-dC), 200 ug/ml BSA; 20 nM probe (Results: 1 nM); 30 min at 4 C; recombinant protein; residues 1-491; probe letters rebuilt from the primers and the genome
[5] = target: FleQ (Pseudomonas syringae pv. tomato DC3000) (UniProt Q884Y2); test: DMS footprinting; conditions: no protection, hyperreactive G -88 and -89 bottom strand; STAD: 25 mM Tris-acetate pH 8.0, 8 mM Mg-acetate, 10 mM KCl, 3.5% PEG-8000, 1 mM DTT, 10 ug/ml poly(dI-dC), 200 ug/ml BSA; 20 nM probe (Results: 1 nM); 30 min at 4 C; recombinant protein; residues 1-491; probe letters rebuilt from the primers and the genome

Measured: binding result

CTGTGCGGACATCTGATTGAACAGCGAGAACGCCTGCTCAAGCCCCTGACGACTTTCCAGCTCCGGGGAGTACCGGGCCTGAGCAGATTGGGCGGACGTCAGTTGGGCGGCCTGGGACATAGTTCATCTCTCTCGTGGCGAACCGTCAGTAAACGGTGTGTTAAGAGAGACTTAGCAATCCTCGTGCCGAAAAAAAACCCTTGAAAATTCAAGGGCTTGATTTTTGGCGTTTGAAACAGGCGTCAATCCTCCGCCTGTTCATCACCCTCACGACGGCTCATACCGTACTTGCGCATCTTCTCGACCAGGGTGGT (double strand) [fleS1]
binds: [1]; 1 uM FleQ, label: 5'-32P

TGGTTGCTCGATAGACGGCTGAGAGGTCGCGCGTTGCAGTGCAACAGACGGGGTGCTGGAAACGGAAGATTCCTGATAATCCAGGCTGTTGTCCGTCTCCAGATAACCGTCCGAGCTCGCGCCGAAACGTTGAAACAGATTGGCCACATCGTCAGCACGACTCATTCTGTACGACCTCAATTGGGGCCACCAGGCACAACCCCAGTGGAAAAGCATTAATACTAATGTGTAATGTCATTGTGACAGTGTCAATAAACCGATATATGGCGTCCACAATTTACCGATGAGCGGTAAATTACTCGTTTTTCGACATTTTATTGGCGCTACAAAATTGTAGATCTGGAGACAATCGGGGGCAAACGGGGCTGATTCGAGGGTTTTACGCACTTGCGGCTATATATCCTATGGATCGGATATATAGCCGCTCAAGGGGAGGATCGAATTAAATCAGTGGCTGG (double strand) [wssA1-2]
binds: [2] | [1]; 1 uM FleQ | [1]; 0.5 mM ATP | [1]; 0.5 mM GTP | [1]; 0.5 mM c-di-AMP | [3]; ATP | [3]; GTP | [3]; c-di-AMP | [4] | [5]

CGTCAGCACGACTCATTCTGTACGACCTCAATTGGGGCCACCAGGCACAACCCCAGTGGAAAAGCATTAATACTAATGTGTAATGTCATTGTGACAGTGTCAATAAACCGATATATGGCGTCCACAATTTACCGATGAGCGGTAAATTACTCGTTTTTCGACATTTTATTGGCGCTACAAAATTGTAGATCTGGAGACAATCGGGGGCAAACGGGGCTGATTCGAGGGTTTTACGCACTTGCGGCTATATATCCTATGGATCGGATATATAGCCGCTCAAGGGGAGGATCGAATTAAATCAGTGGCTGG (double strand) [wssA1]
binds: [1]; 1 uM FleQ, label: 5'-32P
